Results of unrelated studies side by side (data: NIAID ChemDB).

Shared fields: target-level tests; agent: Hepatitis C virus

An empty or dashed field is not shown.

SMILES | protein | endpoint | tested at | result
O=C(O)c1ccc2c(c1)nc(-c1ccc3nc(-c4cc(OCCCN5CCCC5)ccc4-c4ccccc4)ccc3c1)n2C1CCCCC1 | NS5B polymerase | inhibition | 33 µM | 98.02%
O=C(Nc1cscc1-c1nc(C(=O)O)c(O)c(=O)[nH]1)NS(=O)(=O)c1cccc(Br)c1 | HCV polymerase | IC50 |  | <25 µM
CCc1ccnc2c(-c3nn[nH]n3)cnn12 | RNA-dependent RNA polymerase | IC50 |  | >10 µM
COc1ccc(OC)c(CNC(=O)Nc2cscc2-c2nc(C(=O)O)c(O)c(=O)[nH]2)c1 | HCV polymerase | IC50 |  | <25 µM
O=C(O)c1sc(-c2ccccc2)cc1NC(=O)N1CCN(c2ccccc2Cl)CC1 | NS3 ATPase | IC50 |  | 5–20 µM
CC(C)c1c(-c2ccc(OCc3ccccc3)cc2)cnc2c(C(=O)O)cnn12 | RNA-dependent RNA polymerase | IC50 |  | >10 µM
O=C(O)c1nc(-c2ccccc2NS(=O)(=O)c2ccc(F)c(F)c2F)[nH]c(=O)c1O | HCV polymerase | IC50 |  | <100 µM
COc1ccc(-c2ccc(Cl)cc2)c(-c2ccc3cc(-c4nc5cc(C(=O)O)ccc5n4CC(C)C)ccc3n2)c1 | NS5B polymerase | inhibition | 100 µM | 98.15%
O=C(O)c1nc(-c2sccc2/C=C/c2ccccc2)[nH]c(=O)c1O | HCV polymerase | IC50 |  | <25 µM
CC(NC(=O)c1ccc2c(c1)nc(-c1ccc3nc(-c4ccccc4)cnc3c1)n2C1CCCCC1)C(=O)O | NS5B polymerase | inhibition | 100 µM | 98.33%
CNC(=O)c1c(-c2ccc(F)cc2)oc2cc(N(C)S(C)(=O)=O)c(OCC(=O)Nc3nncs3)cc12 | Nonstructural protein 5B | IC50 |  | ≤0.5 µM
O=C(Nc1ccsc1-c1nc(C(=O)O)c(O)c(=O)[nH]1)OCc1ccc(Oc2ccccc2)cc1 | HCV polymerase | IC50 |  | <25 µM
CNC(=O)c1c(-c2ccccc2)oc2ccc(OC)c(C)c12 | Nonstructural protein 5B | IC50 |  | >30 µM
CCOC(=O)c1cnn2c(C)cc(-c3ccccc3)nc12 | RNA-dependent RNA polymerase | IC50 |  | >10 µM
NC(=O)[C@H](Cc1cnc[nH]1)NC(=O)c1ccc2ccc(-c3nc4cc(C(=O)O)ccc4n3C3CCCCC3)cc2n1 | NS5B polymerase | inhibition | 33 µM | 51.25%
CC(NC(=O)Nc1cscc1-c1nc(C(=O)O)c(O)c(=O)[nH]1)c1c(F)cccc1F | HCV polymerase | IC50 |  | <25 µM
O=C(O)c1cc2nc(-c3ccc(F)cc3)cc(-c3ccccc3Cl)n2n1 | RNA-dependent RNA polymerase | IC50 |  | >10 µM
CC(C)(C)N(C(=O)c1ccc(Cl)cc1Cl)c1cc(-c2ccccc2)sc1C(=O)O | NS3 ATPase | IC50 |  | <5 µM
O=C(O)c1cc2nc(-c3cccc(Cl)c3)cc(-c3ccsc3)n2n1 | RNA-dependent RNA polymerase | IC50 |  | >10 µM
CCCN(C(=O)c1ccc(C)cc1)c1cc(-c2ccc(CCC(=O)O)cc2)sc1C(=O)O | NS3 ATPase | IC50 |  | 5–20 µM
CC(C)CCc1c(-c2ccc(OCc3ccccc3)cc2)nc2c(C(=O)O)c[nH]n2c1=O | RNA-dependent RNA polymerase | IC50 |  | 1–10 µM
CNC(=O)c1c(-c2ccc(F)cc2)oc2cc(N(CC(O)c3ccc(F)cc3)S(C)(=O)=O)c(O)cc12 | Nonstructural protein 5B | IC50 |  | ≤0.5 µM
Cc1cc(-c2ccccc2Br)nc2ccc(-c3nc4cc(C(=O)O)ccc4n3C3CCCCC3)cc12 | NS5B polymerase | inhibition | 100 µM | 99.81%
O=C(O)c1sc(-c2ccccc2)cc1NS(=O)(=O)c1ccc(F)c(C(F)(F)F)c1 | NS3 ATPase | IC50 |  | 5–20 µM
O=C(O)c1ccc2c(c1)nc(-c1cc3ccc(-c4ccccc4-c4ccccc4)nc3cc1F)n2C1CCCCC1 | NS5B polymerase | inhibition | 100 µM | 98.58%
CNC(=O)c1c(-c2ccc(F)cc2)oc2cc(N(CCO)S(C)(=O)=O)c(OC)cc12 | Nonstructural protein 5B | IC50 |  | ≤0.5 µM
CC(C)(C)OC(N)=NCCNc1cc(-c2ccccc2)nc2ccc(-c3nc4cc(C(=O)O)ccc4n3C3CCCCC3)cc12 | NS5B polymerase | inhibition | 100 µM | 102%
Cc1ccc(C(=O)N(C)c2cc(-c3cccc(F)c3)sc2C(=O)O)cc1 | NS3 ATPase | IC50 |  | <5 µM
O=C(N[C@@H](CO)C(=O)O)c1cc2nc(-c3ccc(Cl)cc3)cc(-c3ccc(Oc4ccccc4)cc3)n2n1 | RNA-dependent RNA polymerase | IC50 |  | 1–10 µM
O=C(O)c1ccc2c(c1)nc(-c1ccc3nc(-c4cc([N+](=O)[O-])ccc4-c4ccc(Cl)cc4)ccc3c1)n2C1CCCCC1 | NS5B polymerase | inhibition | 100 µM | 97.03%
Cc1ccccc1CNC(=O)Nc1cccc(-c2nc(C(=O)O)c(O)c(=O)[nH]2)c1 | HCV polymerase | IC50 |  | <100 µM

2 of the rows above, restated:

SMILES,protein,endpoint,tested at,result
O=C(O)c1cc2nc(-c3cccc(Cl)c3)cc(-c3ccsc3)n2n1,RNA-dependent RNA polymerase,IC50,,>10 µM
CC(C)(C)N(C(=O)c1ccc(Cl)cc1Cl)c1cc(-c2ccccc2)sc1C(=O)O,NS3 ATPase,IC50,,<5 µM

Two numbers with a dash give a range or band. ICn: concentration for n% inhibition. Percent inhibition refers to the dose given; in toxicity tests it is the harm to the cells. Neighbouring rows are from separate reports.